Test results published in patent publication US11731944B2, “SARS-CoV-2 inhibitors for treating coronavirus infections” (priority 2021, dated 2023).

Biological target: SARS-CoV-2 MPRO (Severe acute respiratory syndrome coronavirus 2 (2019-nCoV) (SARS-CoV-2), UniProt P0DTD1)
Test: SARS-CoV-2 Mpro enzymatic assay (FRET substrate cleavage)
Type: biochemical
Conditions: read-out: M pro IC50; C-His6-tagged SARS-CoV-2 MPRO 25 nM, 30 min pre-incubation at RT, 60 min at 30° C., 10 doses from 25 μM

Row | Compound | IC50 [µM]
1 | C[C@@](C(=O)NC1CCC2(CCC2)CC1)(c1cncnc1)N(C(=O)[C@H](F)Cl)c1ccc(OC(F)(F)F)cc1 (single isomer, unassigned) | > 10
2 | C[C@](C(=O)NC1CCC2(CCC2)CC1)(c1cncnc1)N(C(=O)[C@H](F)Cl)c1ccc(OC(F)(F)F)cc1 (single isomer, unassigned) | < 0.1
